The values that follow come from article PMC12670160, “A drug-repurposing screen of FDA- and EMA-approved drugs identifies two NF-κB inhibitors active against eumycetoma” (Journal of Antimicrobial Chemotherapy, 2025).

Each structure is given as a SMILES string.

For the data set, the system named is M. mycetomatis strain mm55. The note with it: primary screen, metabolic activity vs growth control; 96 h, 2 µM; inhibitor.

As for `CN(C(=O)Cc1ccc(Cl)c(Cl)c1)[C@H]1CCCC[C@@H]1N1CCCC1`, the “% viability” value is 100.5%.
Take `CN(C(=O)Cc1ccc(Cl)c(Cl)c1)[C@H]1CC[C@@]2(CCCO2)C[C@@H]1N1CCCC1`: the “% viability” value came out at 90.5%.
Turning to `O=[N+]([O-])O[C@H]1CO[C@H]2[C@@H]1OC[C@H]2O[N+](=O)[O-]`, the “% viability” value came out at 111.9%.
